Data taken from patent US20120121591A1 (priority 2009, published 2012).

Tested on: rat peritoneal mast cells

## Monovalent aKLH HC-ShK(1-35 Q16K) Ab: anti-KLH IgG2 antibody with [Lys16]ShK fused to the C-terminus of one heavy chain
  Degranulation / histamine release of rat peritoneal mast cells: caused degranulation
